Experiments:
HIV-1 Ba-L = test: Dendritic cells assay: MO-DC/CD4+ T cell co-cultures, replication competent virus; assay type: cell-based; conditions: for Cmin, secondary culture, Day 28 (minimal concentration blocking infection): confirmed at Day 28; for EC50 range after 7 days of primary culture: Day 7
Experimental: Dendritic cell experiments were preformed with the replication-competent CCR5 co-receptor, using non-syncytium inducing, subtype B HIV-1 strain Ba-L whose infectious titer was determined on cultures of PHA/IL-2 stimulated PBMC.
Monocytes were separated from the buffy-coats of HIV seronegative blood donors by counter-flow elutriation and E-rosetting. They were subsequently differentiated to monocyte-derived dendritic cells (MO-DC) using GM-CSF and IL-4. […] After 30 minutes, 100 μl of MO-DC were added (4×10^5 cells/ml) and incubated for 2 h (37° C., 5% CO2). Afterwards, cells were washed 3 times and autologous CD4+ T cells were added, in the presence of compound. Co-cultures were incubated for 24 h, after which the cells were washed again (3 times) to remove the compound. Cells were incubated during 14 days of primary culture, during which half of the culture medium was refreshed twice weekly, without compound. At day 14, cultures were washed and PHA/IL-2 activated PBMC were added (2×10^5 cells/cup) to detect any latent or subliminal infection during a supplementary 14 days of secondary culture. Culture supernatants of primary (day 7 and day 14) and secondary (day 28) cultures were analyzed for the presence of HIV p24 Ag by a monoclonal p24 antibody (HuMab-HIVp24; BIOMARIC NV) enzyme-linked immunosorbant assay (ELISA).
Importantly, the replication-competent HIV-1 Ba-L reference strain, was used for these experiments. The virus was shortly pre-incubated with a dilution range of one of the compounds before addition of the MO-DC target cells. The compound remained present during infection and during the first 24 h of the co-culture of the MO-DC with the autologous CD4^+ T cells, but was washed away afterwards.

[1] = target: T1, gp120SF162 binding to CCR5+-CHO cells (Human immunodeficiency virus type 1 group M subtype B, UniProt P19550); test: FACS analysis of gp120 binding to CCR5+-CHO cells in presence of CD4 mimics; assay type: cell-based, HIV-1; conditions: gp120SF162 pre-incubated with mini-protein
T1 construct: R5-tropic SF162 and Dual-tropic SF2 recombinant gp120s were produced in mammalian cells (CHO); made in house; host or cells: gp120: CHO; CCR5: transfected CHO-K1 cells
Source text: FIG. 7 illustrates the FACS analysis of the binding of recombinant envelope gp120 to CCR5^+-CHO cells in absence or in presence of various CD4-mimics, in comparison with soluble CD4.
FIG. 13 illustrates the FACS analysis of the binding of recombinant envelope gp120 to CCR5^+-CHO cells in absence or in presence of various CD4-mimics in comparison with soluble CD4.
FIG. 19 illustrates the FACS analysis of the binding of gp120SF162 to CCR5^+ CHO cells in absence or in presence of CD4M48 monomer or hetero-bivalent CD4M48−heparin. The ability of gp120 in complex with CD4M48 alone, CD4M48 covalently bound to heparin (noted M48−heparin), CD4M48 in presence of free LMW heparin (1:1) (noted M48+heparin) to bind to cellular co-receptor CCR5 was investigated.
Adherent CHO-K1 cells expressing CCR5 (Samson et al., Biochemistry, 1996, 35, 3362-3367; Blanpain et al., Blood, 2000, 96, 1638-1645) were used to analyze gp120SF162 conformational change in complex with different mini-proteins, by FACS (BECKTON DICKINSON). Briefly, 0.03 μg of gp120SF162 were pre-incubated overnight at 4° C. in absence or in presence of 10 nM CD4 or 10 nM mini-proteins and further added to 2×10^5 cells in HAM F12 supplemented with 10% SVF, 1% penicillin/streptomycin. After 1 h incubation at room temperature, cells were washed 3 times with phosphate buffer saline (PBS) containing 5% BSA. Bound gp120 was subsequently stained with D7324 antibody (AALTO BIO REAGENTS) washed and labeled with goat anti-sheep secondary antibody conjugated to phycoerythrin (PE) (R&D SYSTEMS). After final wash, cells were analyzed for envelope binding by FACS.

HIV-1 pseudovirus CA10-3 = test: HIV single cycle pseudovirus assay in GHOST cells; assay type: cell-based; conditions: pseudovirus CA10-3, CRF01_A/E, X4; read-out: antiviral activity EC50
Experimental: (§1) For single-cycle infection experiments, HIV pseudoviruses representative of different HIV-1 subtypes were produced by co-transfection of 2×10^5 HEK293 (American Type Culture Collection) derived cells expressing the SV40 T antigen (HEK293 T), using the calcium phosphate method (ProFection® mammalian transfection system; PROMEGA). To this end, 1 μg of an HIV-1 env expressing vector under control of a CMV promoter, derived from pcDNA4/TO backbone vector (INVITROGEN) and 400 ng of the HIV-1 genomic vector (pNL4-3.Luc R^−E^−; National Institutes of Health AIDS Research and Reference Reagent program; catalogue number 3418), under control of the LTR promoter were used. pNL4-3.Luc R^−E^− contains the whole HIV genome, including a packaging signal, but has a frameshift in the env and vpr genes rendering it non-infectious. Furthermore a luciferase reporter gene replaces the nef gene. After 24 h, the medium was replaced with medium containing 1 mM sodium butyrate (SIGMA-ALDRICH) and the cells were further incubated for an additional 24 h. Afterwards, the supernatant with the pseudovirus was harvested, filtered (Millex 0.45 μm filters, MILLIPORE) and after adding Fetal calf serum (FCS; 10%) stored at −80° C. Pseudoviruses of different HIV-1 subtypes were created, including pseudoviruses derived from the subtype B, CCR5 co-receptor using strains Ba-L and SF162; the subtype B, CXCR4 co-receptor using strains Mn; the subtype C, CCR5 co-receptor using strains VI829, VI1358 and MJ4 and the CRF01_AE, CXCR4 co-receptor using strain CA10-3.
(§2) Fifty microliters of HIV pseudovirus were pre-incubated with 50 μl of a dilution series of a CD4 miniprotein or reference compound. After 15 minutes, 100 μl of GHOST target cells (AIDS REFERENCE AND REAGENT PROGRAM; 1.2×10^5 cells/ml) expressing CD4 and either of the HIV co-receptors CCR5 or CXCR4 were added to the 96-well cups containing the pre-treated pseudovirus. The GHOST cells were lysed 48 h post-infection by addition of the luciferin substrate (SteadyLite HTS, PERKIN ELMER LIFE SCIENCES). The resulting light signal, expressed as relative lights units (RLU), was quantified in a luminometer (Top Count™, CANBERRA-PACKARD).

HIV-1 pseudovirus SF162 = test: HIV single cycle pseudovirus assay in GHOST cells; assay type: cell-based
Experimental: as §1, §2

gp120 = conditions: cited from earlier work
gp120 Bal = test: Direct binding by fluorescence anisotropy of Alexa-labeled mini-proteins; set-up: species or system HIV-1; conditions: Alexa labeled mini-protein 0.5 nM; gp120 Bal (R5-tropic); read-out: Dissociation constant (Kd)
Experimental: Binding assays by fluorescence anisotropy were made in a LJL Analyst (LJL BIOSYSTEMS) microplate reader using 384-wells plates. All peptides were diluted in 10 mM sodium phosphate buffer, pH 7.0, with 135 mM NaCl and 0.05% Tween 20.
Direct binding assays of fluorescent peptides were performed in triplicates by adding 10 μL of 0.5 nM Alexa-labeled mini-proteins and 10 μL of serial dilutions (two-thirds dilutions in 16 wells, starting at 200 nM) of gp120 SF2, SF162, BaL, IIIB and YU2. Collected data were fitted to the following equation using a non-linear regression program (Prism, GraphPad software Inc.):
[formula] where A, Af and Ab are respectively the measured, free and fully bounded anisotropy, Lt is the total labeled mini-protein concentration, Rt is the total gp120 concentration and Kd the thermodynamic dissociation constant. d) FACS Analysis of CD4M48-Induced Envelope Conformational Change

With `CC(C)C[C@@H]1NC(=O)CNC(=O)[C@H](CC(C)C)NC(=O)[C@H](CO)NC(=O)[C@H](CCCCN)NC(=O)[C@@H]2CSSC[C@@H](C(=O)N[C@H](C(N)=O)C(C)C)NC(=O)[C@H](C)NC(=O)[C@@H]3CSSC[C@H](NC(=O)[C@H](Cc4ccccc4)NC(=O)[C@H](Cc4c[nH]cn4)NC(=O)[C@H](CC(C)C)NC(=O)[C@H](CC(N)=O)NC(=O)CCSSC[C@H](NC(=O)[C@H](CCCNC(=N)N)NC(=O)CNC(=O)[C@H](CC(C)C)NC1=O)C(=O)N[C@@H](C)C(=O)N1CCC[C@@H]1C(=O)N[C@@H]([C@@H](C)O)C(=O)N[C@@H](Cc1ccc(OCCc4ccccc4)cc1)C(=O)N3)C(=O)N[C@@H](CCC(N)=O)C(=O)N[C@@H](CC(C)C)C(=O)N[C@@H](CCCNC(=N)N)C(=O)N2` [CD4M48_U3] the “Cmin, secondary culture, Day 28 (minimal concentration blocking infection)” value (shortened to “Cmin, secondary culture”) (HIV-1 Ba-L) was 6546 nM.

With `CC(C)C[C@@H]1NC(=O)CNC(=O)[C@H](CC(C)C)NC(=O)[C@H](CO)NC(=O)[C@H](CCCCN)NC(=O)[C@@H]2CSSC[C@@H](C(=O)N[C@H](C(N)=O)C(C)C)NC(=O)[C@H](C)NC(=O)[C@@H]3CSSC[C@H](NC(=O)[C@H](Cc4ccccc4)NC(=O)[C@H](Cc4c[nH]cn4)NC(=O)[C@H](CC(C)C)NC(=O)[C@H](CC(N)=O)NC(=O)CCSSC[C@H](NC(=O)[C@H](CCCNC(=N)N)NC(=O)CNC(=O)[C@H](CC(C)C)NC1=O)C(=O)N[C@@H](C)C(=O)N1CCC[C@@H]1C(=O)N[C@@H]([C@@H](C)O)C(=O)N[C@@H](Cc1ccc(OCC4CCCCC4)cc1)C(=O)N3)C(=O)N[C@@H](CCC(N)=O)C(=O)N[C@@H](CC(C)C)C(=O)N[C@@H](CCCNC(=N)N)C(=O)N2` [CD4M48_U1] the “Binding of gp120 to CCR5+-CHO cells induced by the mimic (conformational change of gp120)” value (shortened to “Binding … (conformational change of gp120)”) [1] was “better ability to induce the conformational change of gp120”, the “EC50 range after 7 days of primary culture” value (HIV-1 Ba-L) was “nM range” and the EC50 (HIV-1 Ba-L; Day 14, read-out: EC50, primary culture, Day 14) was 16 nM. The “Cmin, secondary culture” value (HIV-1 Ba-L) was 66 nM, the EC50 (HIV-1 pseudovirus CA10-3) was 0.3 nM and the EC50 (HIV-1 pseudovirus SF162; pseudovirus SF162, subtype B, R5, read-out: antiviral activity EC50) was 0.65 nM. For the same compound, the “Enhancement of antiviral activity relative to M47 and M33” value (HIV-1 pseudovirus SF162; single-cycle HIV-1 SF162 pseudovirus assay) was 36 fold.

With `CC(C)C[C@@H]1NC(=O)CNC(=O)[C@H](CC(C)C)NC(=O)[C@H](CO)NC(=O)[C@H](CCCCN)NC(=O)[C@@H]2CSSC[C@@H](C(=O)N[C@H](C(N)=O)C(C)C)NC(=O)[C@H](C)NC(=O)[C@@H]3CSSC[C@H](NC(=O)[C@H](Cc4ccccc4)NC(=O)[C@H](Cc4c[nH]cn4)NC(=O)[C@H](CC(C)C)NC(=O)[C@H](CC(N)=O)NC(=O)CCSSC[C@H](NC(=O)[C@H](CCCNC(=N)N)NC(=O)CNC(=O)[C@H](CC(C)C)NC1=O)C(=O)N[C@@H](C)C(=O)N1CCC[C@@H]1C(=O)N[C@@H]([C@@H](C)O)C(=O)N[C@@H](Cc1ccc(OCCC4CCCC4)cc1)C(=O)N3)C(=O)N[C@@H](CCC(N)=O)C(=O)N[C@@H](CC(C)C)C(=O)N[C@@H](CCCNC(=N)N)C(=O)N2` [CD4M48_U2] the “Binding … (conformational change of gp120)” value [1] was “better ability to induce the conformational change of gp120” and the “Cmin, secondary culture” value (HIV-1 Ba-L) was 656 nM.

For `CC(C)C[C@@H]1NC(=O)CNC(=O)[C@H](CC(C)C)NC(=O)[C@H](CO)NC(=O)[C@H](CCCCN)NC(=O)[C@@H]2CSSC[C@@H](C(=O)N[C@H](C(N)=O)C(C)C)NC(=O)[C@H](C)NC(=O)[C@@H]3CSSC[C@H](NC(=O)[C@H](Cc4ccccc4)NC(=O)[C@H](Cc4c[nH]cn4)NC(=O)[C@H](CC(C)C)NC(=O)[C@H](CC(N)=O)NC(=O)CCSSC[C@H](NC(=O)[C@H](CCCCN)NC(=O)CNC(=O)[C@H](CC(C)C)NC1=O)C(=O)N[C@@H](C)C(=O)NCC(=O)N[C@@H](CO)C(=O)N[C@@H](Cc1ccc(-c4ccccc4)cc1)C(=O)N3)C(=O)N[C@@H](CCC(N)=O)C(=O)N[C@@H](CC(C)C)C(=O)N[C@@H](CCCNC(=N)N)C(=O)N2` [CD4M33, reference compound], the “Binding … (conformational change of gp120)” value [1] was “intermediate fluorescence response”, the “EC50 range after 7 days of primary culture” value (HIV-1 Ba-L) was “lower μM range” and the “Cmin, secondary culture” value (HIV-1 Ba-L) was over 3414 nM. The “Kd for different gp120s in competition with soluble CD4” value (gp120) was “nanomolar” and the Kd (gp120 Bal) was 6.36 ± 0.26 nM.

From patent US8354498B2, “CD4 mimic peptides and their uses” (Commissariat a l'Energie Atomique, priority 2006, dated 2013)
